Compound potency records, mixed from different reports. Data source: NIAID ChemDB in PubChem.

Common to all: tests in culture; organism: Candida albicans; endpoint: MIC

Neighbouring rows are from separate reports. Blank or dashed fields: not listed here.

{"compound": "C=CCS/C(N)=N/NC(=O)c1ccc(Cl)cc1", "value": ">100 µg/mL"}
{"compound": "Oc1ccc2cc1Oc1ccc(cc1)CCc1ccc(O)c(O)c1Oc1cccc(c1)CC2", "strain or isolate": "CA 02", "read by": "broth dilution", "value": "256 µg/mL"}
{"compound": "Cc1cc(O)c(C(C)C)cc1O", "value": "125 µg/mL"}
{"compound": "CC(C)(O)c1cn(-c2ccc(Cl)cc2)nn1", "strain or isolate": "URM 4124", "read by": "broth dilution", "value": "256 µg/mL"}
{"compound": "Nn1c(SCC(O)(Cn2cncn2)c2ccc(F)cc2F)nnc1-c1ccccc1", "strain or isolate": "IRFC 37", "read by": "broth dilution", "value": ">64 µg/mL"}
{"compound": "NC(=S)NNC(=O)c1ccc(Cl)cc1", "value": ">100 µg/mL"}
{"compound": "Nc1[nH]c(=O)ncc1F", "strain or isolate": "ATCC64550", "value": "1 µg/mL"}
{"compound": "Cc1c(O)cccc1C(=O)N[C@@H](CSc1ccccc1)[C@H](O)CN1C[C@H]2CCCC[C@H]2C[C@H]1C(=O)NC(C)(C)C", "strain or isolate": "I139A", "value": ">64 µg/mL"}
{"compound": "Clc1ccc(CC2=NCCS2)cc1", "value": "36 µg/mL"}
{"compound": "CCCCS/C(N)=N/NC(=O)c1ccccc1", "value": ">100 µg/mL"}
{"compound": "CC(NC(=O)OC(C)(C)C)c1nc(C(=O)O)co1", "strain or isolate": "7 isolates", "value": "428 µM"}
{"compound": "CCCCCCCCCC(=O)[C@H](C)C(=O)N[C@@H](CC(C)C)C(=O)N[C@H](C)C(=O)N1CCC[C@H]1C(=O)N[C@H](C(=O)N[C@H]1CSCCNC1=O)C(C)C", "strain or isolate": "Day185", "read by": "broth dilution", "value": ">200 µM"}
{"compound": "c1csc(CC2=NCCS2)c1", "value": "12 µg/mL"}
{"compound": "Nn1c(SCC(O)(Cn2cncn2)c2ccc(Cl)cc2Cl)nnc1-c1ccc(Cl)cc1Cl", "strain or isolate": "IRFC 36", "read by": "broth dilution", "value": "2 µg/mL"}
{"compound": "CS/C(N)=N/NC(=O)c1ccc(Cl)cc1Cl", "value": ">100 µg/mL"}
{"compound": "C(=C/c1ccncc1)/C1=NCCS1", "value": "12 µg/mL"}
{"compound": "Oc1ccc2c(c1)CCc1ccc(cc1)Oc1cc(ccc1O)CCc1ccc-2c(O)c1", "strain or isolate": "CA10", "read by": "broth dilution", "value": "32 µg/mL"}
{"compound": "CC(N)c1nc(C(N)=O)cs1", "strain or isolate": "7 isolates", "value": ">1000 µM"}
{"compound": "Oc1ccc2cc1Oc1ccc(cc1)CCc1ccc(c(O)c1)-c1c(O)cccc1CC2", "strain or isolate": "CA10", "read by": "broth dilution", "value": ">512 µg/mL"}
{"compound": "CC(CCC(=O)NCCC[N+](C)(C)CCCS(=O)(=O)[O-])C1CCC2C3C(C[C@H](O)C12C)C1(C)CC[C@@H](O)C[C@H]1C[C@H]3O", "strain or isolate": "ATCC 14053", "value": ">500 µg/mL"}
{"compound": "Cc1ccccc1N1COc2c(ccc3ccccc23)C1", "strain or isolate": "MTCC 277", "value": "15 µg/mL"}
{"compound": "Nn1c(SCC(O)(Cn2cncn2)c2ccc(F)cc2F)nnc1-c1ccc(Cl)cc1Cl", "strain or isolate": "ATCC 18804", "read by": "broth dilution", "value": "32 µg/mL"}
{"compound": "CN1CCN(c2n[nH]c(N3C(=O)CS[C@@H]3c3ccc4c(c3)OCO4)n2)CC1", "strain or isolate": "116.98", "read by": "broth dilution", "value": "1.56 µg/mL"}
{"compound": "C[C@H]1[C@H](O)[C@@H](C)/C=C/C=C/C=C/C=C/C=C/C=C/C=C/[C@H](O[C@@H]2O[C@H](C)[C@@H](O)[C@H](N)[C@@H]2O)C[C@@H]2O[C@](O)(C[C@@H](O)C[C@@H](O)CC[C@H](O)[C@@H](O)C[C@@H](O)CC(=O)O[C@H]1C)C[C@H](O)[C@H]2C(=O)O", "strain or isolate": "2402E", "value": "0.03 µg/mL"}
{"compound": "O=C1CS[C@H](c2ccccc2)N1c1nc(N2CCOCC2)n[nH]1", "strain or isolate": "A39", "read by": "broth dilution", "value": "10 µg/mL"}
{"compound": "COc1ccc(N2COc3c(ccc4ccccc34)C2)cc1", "strain or isolate": "MTCC 277", "value": "20 µg/mL"}
{"compound": "CCC(C)CC(C)CCCCCCCCC(=O)N[C@H]1C[C@@H](O)[C@H](NCCN)NC(=O)[C@@H]2[C@@H](O)CCN2C(=O)[C@H]([C@H](O)CCN)NC(=O)[C@H]([C@H](O)[C@@H](O)c2ccc(O)cc2)NC(=O)[C@@H]2C[C@@H](O)CN2C(=O)[C@H]([C@@H](C)O)NC1=O", "strain or isolate": "W111", "read by": "broth dilution", "value": "1 µg/mL"}
{"compound": "NCCCCNCCCN", "strain or isolate": "ATCC 14053", "value": ">500 µg/mL"}
{"compound": "COc1ccc([C@H]2SCC(=O)N2c2nc(N3CCN(C)CC3)n[nH]2)cc1OC", "strain or isolate": "A39", "read by": "broth dilution", "value": "10 µg/mL"}
{"compound": "Nn1c(SCC(O)(Cn2cncn2)c2ccc(Cl)cc2Cl)nnc1-c1ccc(O)cc1", "strain or isolate": "PTCC 6027", "read by": "broth dilution", "value": ">64 µg/mL"}
{"compound": "C(=C/c1cc2ccccc2o1)/C1=NCCS1", "value": "52 µg/mL"}
{"compound": "CCOC(=O)c1csc(C(CC(=O)OC)NC(=O)OC(C)(C)C)n1", "strain or isolate": "7 isolates", "value": ">3000 µM"}
{"compound": "NC(=S)NNC(=O)c1ccc(Cl)cc1Cl", "value": ">100 µg/mL"}
{"compound": "CC(C)(C)OC(=O)N1CCCC1c1nc(C(N)=O)cs1", "strain or isolate": "7 isolates", "value": "454 µM"}
{"compound": "CN1CCN(c2n[nH]c(N3C(=O)CS[C@@H]3c3ccc(Cl)cc3)n2)CC1", "strain or isolate": "A39", "read by": "broth dilution", "value": "100 µg/mL"}
{"compound": "CC(C)C(NC(=O)OC(C)(C)C)c1nc(C(N)=O)cs1", "strain or isolate": "7 isolates", "value": "429 µM"}
{"compound": "CCOc1ccc(N2COc3c(ccc4ccccc34)C2)cc1", "strain or isolate": "MTCC 277", "value": "10 µg/mL"}
{"compound": "N/C(=N\\NC(=O)c1ccccc1)SCc1cccc(Cl)c1", "value": ">100 µg/mL"}
{"compound": "Nn1c(SCC(O)(Cn2cncn2)c2ccc(F)cc2F)nnc1-c1ccc(O)cc1", "strain or isolate": "IRFC 37", "read by": "broth dilution", "value": ">64 µg/mL"}
{"compound": "CCOC(=O)c1csc(C2CCCN2)n1", "strain or isolate": "7 isolates", "value": "404 µM"}
{"compound": "NC(=S)NNC(=O)c1ccc(F)cc1", "value": ">100 µg/mL"}
{"compound": "C[C@@H]1CCC(=O)[C@H](C)[C@@]1(C)CCc1ccc2c(c1)C(=O)C=CC2=O", "value": "3 µg/mL"}
{"compound": "Clc1ccc(/C=C\\C2=NCCS2)cc1", "value": "3 µg/mL"}
{"compound": "Nn1c(SCC(O)(Cn2cncn2)c2ccc(Cl)cc2Cl)nnc1-c1cccc(Br)c1", "strain or isolate": "IRFC 37", "read by": "broth dilution", "value": ">64 µg/mL"}
{"compound": "CCCCCCCCCC(=O)[C@@H](C)C(=O)N[C@@H](CC(C)C)C(=O)N[C@H](C)C(=O)N1CCC[C@H]1C(=O)N[C@H](C(=O)N[C@H]1CSCCNC1=O)[C@@H](C)CC", "strain or isolate": "Day185", "read by": "broth dilution", "value": ">200 µM"}
{"compound": "Nn1c(SCC(O)(Cn2cncn2)c2ccc(F)cc2F)nnc1-c1cccc(Br)c1", "strain or isolate": "IRFC 36", "read by": "broth dilution", "value": ">64 µg/mL"}
{"compound": "CC(C)CC(NC(=O)OC(C)(C)C)c1nc(C(=O)O)cs1", "strain or isolate": "7 isolates", "value": "203 µM"}
{"compound": "Cc1ccc(C(=O)N/N=C(\\N)SCc2cccc(Cl)c2)cc1", "value": ">100 µg/mL"}
{"compound": "Nn1c(SCC(O)(Cn2cncn2)c2ccc(Cl)cc2Cl)nnc1-c1ccc(Cl)cc1", "strain or isolate": "PTCC 6027", "read by": "broth dilution", "value": ">64 µg/mL"}

Again, the opening 6 rows:

compound,strain or isolate,read by,value
C=CCS/C(N)=N/NC(=O)c1ccc(Cl)cc1,-,-,>100 µg/mL
Oc1ccc2cc1Oc1ccc(cc1)CCc1ccc(O)c(O)c1Oc1cccc(c1)CC2,CA 02,broth dilution,256 µg/mL
Cc1cc(O)c(C(C)C)cc1O,-,-,125 µg/mL
CC(C)(O)c1cn(-c2ccc(Cl)cc2)nn1,URM 4124,broth dilution,256 µg/mL
Nn1c(SCC(O)(Cn2cncn2)c2ccc(F)cc2F)nnc1-c1ccccc1,IRFC 37,broth dilution,>64 µg/mL
NC(=S)NNC(=O)c1ccc(Cl)cc1,-,-,>100 µg/mL